Pooled drug test results. Numbers come from NIAID ChemDB, via PubChem.

Shared fields: host cell toxicity; cells: HepG2; read-out: CC50

Blank or dashed fields: not listed here.

smiles,method,setting,result
Nc1nc2c(ncn2[C@H]2CO[C@@H](CO)O2)c(=O)[nH]1,-,-,>50 µM
O=C1OC(=O)c2c1c(Br)c1cc3c(cc1c2-c1cc2c(cc1Br)OCO2)OCO3,-,-,6 µM
O=c1[nH]cnc2c1ncn2[C@H]1CC[C@@H](CO)O1,-,-,>500 µM
O=C(Nc1ccc(Cl)cc1)c1cc(Cl)ccc1OC(=O)N(c1ccccc1)c1ccccc1,MTT,-,>100 µM
CC(=O)c1cc([N+](=O)[O-])c(N2CC(C)CC(C)C2)s1,resazurin,-,41 µg/mL
CCN(CC)CC.Nc1ncnc2c1ncn2[C@@H]1O[C@H](CNS(=O)(=O)NC(=O)c2ccccc2O)CC1F,MTT / absorbance,-,>200 µM
Cc1ccc2c3c1C(CN)OB3OCCO2,resazurin,-,36.4 µM
OCc1cc2ccc3c(c2c(-c2ccc4c(c2)OCO4)c1CO)OCO3,-,-,16 µM
CN(C)C(=O)Oc1ccc(Cl)cc1C(=O)Nc1ccc(Cl)cc1,MTT,-,188.7 µM
CC[C@H](/C=C/[C@@H](C)[C@H]1CCC2C3CC=C4C[C@@H](O)CC[C@]4(C)[C@@]3(C)CC[C@@]21C)C(C)C,ATP,-,>26 µM
O=[N+]([O-])c1ccc(F)c(N=Cc2ccc([N+](=O)[O-])o2)c1,MTT,-,>80 µg/mL
CC1(C)CC[C@]2(C(=O)O)CC[C@]3(C)C(=CC[C@@H]4[C@@]5(C)C[C@@H](O)[C@H](O)[C@@](C)(CO)[C@@H]5CC[C@]43C)[C@@H]2C1,ATP,-,>26 µM
Cc1cccc(NC(=O)c2cccc(CN3C(=O)CNC3=O)c2)c1,XTT,-,41.3 µM
O=C(Nc1ccccc1)c1ccccc1OC(=O)N(c1ccccc1)c1ccccc1,MTT,-,211.1 µM
CCCCN(CCCC)CC(O)COc1cccc2ccccc12,cell count / luminescence,-,11.5 µM
CC(C)OC(=O)[C@H](C)N[P@](=O)(OC[C@H]1O[C@@](C#N)(c2ccc3c(N)ncnn23)[C@](C)(O)[C@@H]1OC(=O)C(C)C)Oc1ccccc1,ATP,-,66 µM
Cc1[nH]n(-c2ccccc2)c(=O)c1Sc1ccc(Cl)cc1Cl,fluorescence,-,>50 µM
c1ccc(C(CCNCC2(c3ccc4c(c3)OCCO4)CCOCC2)c2ccccc2)cc1,cell count / luminescence,-,>24.9 µM
O=[N+]([O-])c1ccc(O)c(C=Nc2cccc3cccnc23)c1,MTT,-,443.1 µg/mL
O=C(O)c1cc2ccc3c(c2c(-c2ccc4c(c2)OCO4)c1CO)OCO3,-,-,26 µM
COc1nc(OC(F)(F)F)c(NC(=O)C2CCC3C4CN(C(=O)OC(C)(C)C)C5=CC(=O)CC[C@]5(C)C4CC[C@]23C)cc1Br,ATP / luminescence,-,>30 µM
C[C@H](Cn1cnc2c(N)ncnc21)OCP(=O)(O)O,ATP,-,1530 µM
CN(C)C(=O)Oc1ccc(Cl)cc1C(=O)Nc1ccc(F)cc1,MTT,-,444.5 µM
O=S(=O)(NCc1ccccc1)c1ccc(-c2cc3ccncc3cc2OC2CCNCC2)s1,ATP / luminescence,-,12.6 µM
Nc1ccc(NC2=C(N3CCCCC3)C(=O)c3ccccc3C2=O)cc1,MTT,-,130.5 µg/mL
CC(=O)OC(C1CC(C)C(=O)O1)C(C)C1C2C3(O)OC4(CCC12C)C(=CCC1C(C)(C)OC2CC(=O)OC21C4O)C3=O,MTT,-,7.18 µg/mL
Cc1csc(C(C)(O)c2nnc(Nc3ccc(Br)c(C(F)(F)F)n3)s2)n1,resazurin / fluorescence,-,31.6 µM
CC1(C)CC[C@]2(C(=O)O)CC[C@]3(C)C(=CC[C@@H]4[C@@]5(C)C[C@@H](O)[C@H](O)C(C)(C)[C@@H]5CC[C@]43C)[C@@H]2C1,ATP,-,>26 µM
CC[C@@H](CO)NCCN[C@@H](CC)CO,luminescence,-,>100 µg/mL
OCCNc1nc(NCCCCNc2ccnc3cc(Cl)ccc23)nc(N2CCCCC2)n1,-,-,40.9 µM
Cc1ccc(OCC(O)CN2CCc3ccccc3C2)c(C(C)(C)C)c1,cell count / luminescence,-,>29.6 µM
CC1CCN(c2sc([N+](=O)[O-])cc2[N+](=O)[O-])CC1,resazurin,-,8.9 µg/mL
O=C(O)c1c(CO)cc2ccc3c(c2c1-c1ccc2c(c1)OCO2)OCO3,-,-,>30 µM
Nc1ncnc2c1ncn2[C@@H]1O[C@H](OCP(=O)(O)O)C=C1F,ATP,-,>2000 µM
Nc1ccn([C@H]2CC[C@@H](CO)O2)c(=O)n1,-,-,7 µM
CC/C=C\C[C@H]1C(=O)CC[C@@H]1CC(=O)O,ATP,-,>26 µM
COC(=O)N[C@H](C(=O)N1CCC[C@H]1c1nc2ccc(-c3csc4c(-c5ccc(-c6cnc([C@@H]7CCCN7C(=O)[C@H](NC(=O)OC)c7ccccc7)[nH]6)cc5)csc34)cc2[nH]1)C(C)C,LDH,-,>100 µM
CN(C)C(=S)Oc1ccc(Cl)cc1C(=O)Nc1ccc(C(F)(F)F)cc1,MTT,-,67.29 µM
COc1cc(N/N=C/c2ccccc2O)ncn1,MTT,-,>40 µg/mL
CC(=O)c1cc([N+](=O)[O-])c(N2CCC(C)CC2)s1,resazurin,-,61 µg/mL
COc1ccc2nc(C)cc(OCC(=O)Nc3cc(OC)c(Cl)cc3OC)c2c1,luminescence,-,>100 µM
Cc1cn([C@H]2C[C@H](N=[N+]=[N-])[C@@H](CO)O2)c(=O)[nH]c1=O,-,-,3 µM
CC(C)=CCC/C(C)=C/CC/C(C)=C/CC[C@@]1(C)CCc2cc(O)cc(C)c2O1,ATP,-,>26 µM
CCCCCCCCCC(=O)OC1O[C@@H]2OC3(C)CCC4[C@H](C)CCC([C@H]1C)[C@]42OO3,ATP / luminescence,-,>26 µM
COc1ccc(-c2csc(/C(C#N)=C/c3ccc(O)c(OC)c3)n2)cc1,MTT,-,58.8 µg/mL
CCCCCCCC(=O)OC1O[C@@H]2OC3(C)CCC4[C@H](C)CCC([C@H]1C)[C@]42OO3,ATP / luminescence,-,>26 µM
O=c1oc2c(O)c(O)cc3c(=O)oc4c(O)c(O)cc1c4c23,ATP,-,>26 µM
CC(=O)c1cc(O)c(O)c(=O)cc1C,MTS,7 d,3.61 µM
OCc1cc2c(Br)cc3c(c2c(-c2ccc4c(c2)OCO4)c1CO)OCO3,-,-,12 µM
CC1CC(C)CN(c2ccc([N+](=O)[O-])s2)C1,resazurin,-,110 µg/mL
Nc1ccn([C@H]2CC[C@@H](CO)O2)c(=O)n1,-,-,25 µM
O=C(Nc1ccc(C(F)(F)F)cc1)c1cc(Cl)ccc1OC(=O)N(c1ccccc1)c1ccccc1,MTT,-,>100 µM
C[C@@H]1CCC2[C@@H](C)[C@@H](OCCNCCCn3ccnc3)O[C@@H]3OC4(C)CCC1[C@@]23OO4,ATP / luminescence,-,>22.7 µM

Repeating the first 4 entries:

smiles	method	setting	result
Nc1nc2c(ncn2[C@H]2CO[C@@H](CO)O2)c(=O)[nH]1	-	-	>50 µM
O=C1OC(=O)c2c1c(Br)c1cc3c(cc1c2-c1cc2c(cc1Br)OCO2)OCO3	-	-	6 µM
O=c1[nH]cnc2c1ncn2[C@H]1CC[C@@H](CO)O1	-	-	>500 µM
O=C(Nc1ccc(Cl)cc1)c1cc(Cl)ccc1OC(=O)N(c1ccccc1)c1ccccc1	MTT	-	>100 µM

CCn is the concentration with n% toxicity to the cells. Rows are shuffled and stem from different studies.